# Assay results: publication PMC9104152, “Phosphoproteomics Unravel HBV Triggered Rewiring of Host Phosphosignaling Events” (International Journal of Molecular Sciences, 2022)
# System: HepG2-NTCP cells
# Assay: TMT-based phosphoproteome profiling of HBV-infected vs mock HepG2-NTCP (HBV/mock ratio)
# Design: species or system human
# Settings: phosphosite abundance ratio of host protein, HBV-infected vs mock HepG2-NTCP, 7dpi, sheet Up-regulated
row,Molecule,HBV/mock
1,"Q96ST3 1xPhospho [S832(100)] (protein, UniProt Q96ST3 1-1273, looked up, phosphorylated S832) Paired amphipathic helix …: MKRRLDDQESPVYAAQQRRIPGSTEAFPHQHRVLAPAPPVYEAVSETMQSATGIQYSVTPSYQVSAMPQSSGSHGPAIAAVHSSHHHPTAVQPHGGQVVQSHAHPAPPVAPVQGQQQFQRLKVEDALSYLDQVKLQFGSQPQVYNDFLDIMKEFKSQSIDTPGVISRVSQLFKGHPDLIMGFNTFLPPGYKIEVQTNDMVNVTTPGQVHQIPTHGIQPQPQPPPQHPSQPSAQSAPAPAQPAPQPPPAKVSKPSQLQAHTPASQQTPPLPPYASPRSPPVQPHTPVTISLGTAPSLQNNQPVEFNHAINYVNKIKNRFQGQPDIYKAFLEILHTYQKEQRNAKEAGGNYTPALTEQEVYAQVARLFKNQEDLLSEFGQFLPDANSSVLLSKTTAEKVDSVRNDHGGTVKKPQLNNKPQRPSQNGCQIRRHPTGTTPPVKKKPKLLNLKDSSMADASKHGGGTESLFFDKVRKALRSAEAYENFLRCLVIFNQEVISRAELVQLVSPFLGKFPELFNWFKNFLGYKESVHLETYPKERATEGIAMEIDYASCKRLGSSYRALPKSYQQPKCTGRTPLCKEVLNDTWVSFPSWSEDSTFVSSKKTQYEEHIYRCEDERFELDVVLETNLATIRVLEAIQKKLSRLSAEEQAKFRLDNTLGGTSEVIHRKALQRIYADKAADIIDGLRKNPSIAVPIVLKRLKMKEEEWREAQRGFNKVWREQNEKYYLKSLDHQGINFKQNDTKVLRSKSLLNEIESIYDERQEQATEENAGVPVGPHLSLAYEDKQILEDAAALIIHHVKRQTGIQKEDKYKIKQIMHHFIPDLLFAQRGDLSDVEEEEEEEMDVDEATGAVKKHNGVGGSPPKSKLLFSNTAAQKLRGMDEVYNLFYVNNNWYIFMRLHQILCLRLLRICSQAERQIEEENREREWEREVLGIKRDKSDSPAIQLRLKEPMDVDVEDYYPAFLDMVRSLLDGNIDSSQYEDSLREMFTIHAYIAFTMDKLIQSIVRQLQHIVSDEICVQVTDLYLAENNNGATGGQLNTQNSRSLLESTYQRKAEQLMSDENCFKLMFIQSQGQVQLTIELLDTEEENSDDPVEAERWSDYVERYMNSDTTSPELREHLAQKPVFLPRNLRRIRKCQRGREQQEKEGKEGNSKKTMENVDSLDKLECRFKLNSYKMVYVIKSEDYMYRRTALLRAHQSHERVSKRLHQRFQAWVDKWTKEHVPREMAAETSKWLMGEGLEGLVPCTTTCDTETLHFVSINKYRVKYGTVFKAP",1.4051
2,"Q8WUM9 2xPhospho [S265(100); S269(100)] (protein, UniProt Q8WUM9 1-679, looked up, phosphorylated S265, S269) Sodium-dependent phosphate …: MATLITSTTAATAASGPLVDYLWMLILGFIIAFVLAFSVGANDVANSFGTAVGSGVVTLKQACILASIFETVGSVLLGAKVSETIRKGLIDVEMYNSTQGLLMAGSVSAMFGSAVWQLVASFLKLPISGTHCIVGATIGFSLVAKGQEGVKWSELIKIVMSWFVSPLLSGIMSGILFFLVRAFILHKADPVPNGLRALPVFYACTVGINLFSIMYTGAPLLGFDKLPLWGTILISVGCAVFCALIVWFFVCPRMKRKIEREIKCSPSESPLMEKKNSLKEDHEETKLSVGDIENKHPVSEVGPATVPLQAVVEERTVSFKLGDLEEAPERERLPSVDLKEETSIDSTVNGAVQLPNGNLVQFSQAVSNQINSSGHYQYHTVHKDSGLYKELLHKLHLAKVGDCMGDSGDKPLRRNNSYTSYTMAICGMPLDSFRAKEGEQKGEEMEKLTWPNADSKKRIRMDSYTSYCNAVSDLHSASEIDMSVKAEMGLGDRKGSNGSLEEWYDQDKPEVSLLFQFLQILTACFGSFAHGGNDVSNAIGPLVALYLVYDTGDVSSKVATPIWLLLYGGVGICVGLWVWGRRVIQTMGKDLTPITPSSGFSIELASALTVVIASNIGLPISTTHCKVGSVVSVGWLRSKKAVDWRLFRNIFMAWFVTVPISGVISAAIMAIFRYVILRM",1.471
3,"Q96QD8 1xPhospho [S/Y] (protein, UniProt Q96QD8 1-506, looked up, phosphorylated) Sodium-coupled neutral amino …: MKKAEMGRFSISPDEDSSSYSSNSDFNYSYPTKQAALKSHYADVDPENQNFLLESNLGKKKYETEFHPGTTSFGMSVFNLSNAIVGSGILGLSYAMANTGIALFIILLTFVSIFSLYSVHLLLKTANEGGSLLYEQLGYKAFGLVGKLAASGSITMQNIGAMSSYLFIVKYELPLVIQALTNIEDKTGLWYLNGNYLVLLVSLVVILPLSLFRNLGYLGYTSGLSLLCMVFFLIVVICKKFQVPCPVEAALIINETINTTLTQPTALVPALSHNVTENDSCRPHYFIFNSQTVYAVPILIFSFVCHPAVLPIYEELKDRSRRRMMNVSKISFFAMFLMYLLAALFGYLTFYEHVESELLHTYSSILGTDILLLIVRLAVLMAVTLTVPVVIFPIRSSVTHLLCASKDFSWWRHSLITVSILAFTNLLVIFVPTIRDIFGFIGASAASMLIFILPSAFYIKLVKKEPMKSVQKIGALFFLLSGVLVMTGSMALIVLDWVHNAPGGGH",1.364
4,"O75533 1xPhospho [T227(100)] (protein, UniProt O75533 1-1304, looked up, phosphorylated T227) Splicing factor 3B subunit 1: MAKIAKTHEDIEAQIREIQGKKAALDEAQGVGLDSTGYYDQEIYGGSDSRFAGYVTSIAATELEDDDDDYSSSTSLLGQKKPGYHAPVALLNDIPQSTEQYDPFAEHRPPKIADREDEYKKHRRTMIISPERLDPFADGGKTPDPKMNARTYMDVMREQHLTKEEREIRQQLAEKAKAGELKVVNGAAASQPPSKRKRRWDQTADQTPGATPKKLSSWDQAETPGHTPSLRWDETPGRAKGSETPGATPGSKIWDPTPSHTPAGAATPGRGDTPGHATPGHGGATSSARKNRWDETPKTERDTPGHGSGWAETPRTDRGGDSIGETPTPGASKRKSRWDETPASQMGGSTPVLTPGKTPIGTPAMNMATPTPGHIMSMTPEQLQAWRWEREIDERNRPLSDEELDAMFPEGYKVLPPPAGYVPIRTPARKLTATPTPLGGMTGFHMQTEDRTMKSVNDQPSGNLPFLKPDDIQYFDKLLVDVDESTLSPEEQKERKIMKLLLKIKNGTPPMRKAALRQITDKAREFGAGPLFNQILPLLMSPTLEDQERHLLVKVIDRILYKLDDLVRPYVHKILVVIEPLLIDEDYYARVEGREIISNLAKAAGLATMISTMRPDIDNMDEYVRNTTARAFAVVASALGIPSLLPFLKAVCKSKKSWQARHTGIKIVQQIAILMGCAILPHLRSLVEIIEHGLVDEQQKVRTISALAIAALAEAATPYGIESFDSVLKPLWKGIRQHRGKGLAAFLKAIGYLIPLMDAEYANYYTREVMLILIREFQSPDEEMKKIVLKVVKQCCGTDGVEANYIKTEILPPFFKHFWQHRMALDRRNYRQLVDTTVELANKVGAAEIISRIVDDLKDEAEQYRKMVMETIEKIMGNLGAADIDHKLEEQLIDGILYAFQEQTTEDSVMLNGFGTVVNALGKRVKPYLPQICGTVLWRLNNKSAKVRQQAADLISRTAVVMKTCQEEKLMGHLGVVLYEYLGEEYPEVLGSILGALKAIVNVIGMHKMTPPIKDLLPRLTPILKNRHEKVQENCIDLVGRIADRGAEYVSAREWMRICFELLELLKAHKKAIRRATVNTFGYIAKAIGPHDVLATLLNNLKVQERQNRVCTTVAIAIVAETCSPFTVLPALMNEYRVPELNVQNGVLKSLSFLFEYIGEMGKDYIYAVTPLLEDALMDRDLVHRQTASAVVQHMSLGVYGFGCEDSLNHLLNYVWPNVFETSPHVIQAVMGALEGLRVAIGPCRMLQYCLQGLFHPARKVRDVYWKIYNSIYIGSQDALIAHYPRIYNDDKNTYIRYELDYIL",2.232
5,"Q99856 1xPhospho [S88(100)] (protein, UniProt Q99856 1-593, looked up, phosphorylated S88) AT-rich interactive …: MKLQAVMETLLQRQQRARQELEARQQLPPDPPAAPPGRARAAPDEDREPESARMQRAQMAALAAMRAAAAGLGHPASPGGSEDGPPGSEEEDAAREGTPGSPGRGREGPGEEHFEDMASDEDMKPKWEEEEMEEDLGEDEEEEEEDYEDEEEEEDEEGLGPPGPASLGTTALFPRKAQPPQAFRGDGVPRVLGGQERPGPGPAHPGGAAHVAPQLQPPDHGDWTYEEQFKQLYELDGDPKRKEFLDDLFSFMQKRGTPVNRIPIMAKQVLDLFMLYVLVTEKGGLVEVINKKLWREITKGLNLPTSITSAAFTLRTQYMKYLYPYECEKRGLSNPNELQAAIDSNRREGRRQSFGGSLFAYSPGGAHGMLSSPKLPVSSLGLAASTNGSSITPAPKIKKEEDSAIPITVPGRLPVSLAGHPVVAAQAAAVQAAAAQAAVAAQAAALEQLREKLESAEPPEKKMALVADEQQRLMQRALQQNFLAMAAQLPMSIRINSQASESRQDSAVNLTGTNGSNSISMSVEINGIMYTGVLFAQPPAPTPTSAPNKGGGGGGGSSSNAGGRGGNTGTSGGQAGPAGLSTPSTSTSNNSLP",2.073
6,"Q13435 2xPhospho [S431(99.5); S] (protein, UniProt Q13435 1-895, looked up, diphosphorylated incl. S431) Splicing factor 3B subunit 2: MATEHPEPPKAELQLPPPPPPGHYGAWAAQELQAKLAEIGAPIQGNREELVERLQSYTRQTGIVLNRPVLRGEDGDKAAPPPMSAQLPGIPMPPPPLGLPPLQPPPPPPPPPPGLGLGFPMAHPPNLGPPPPLRVGEPVALSEEERLKLAQQQAALLMQQEERAKQQGDHSLKEHELLEQQKRAAVLLEQERQQEIAKMGTPVPRPPQDMGQIGVRTPLGPRVAAPVGPVGPTPTVLPMGAPVPRPRGPPPPPGDENREMDDPSVGPKIPQALEKILQLKESRQEEMNSQQEEEEMETDARSSLGQSASETEEDTVSVSKKEKNRKRRNRKKKKKPQRVRGVSSESSGDREKDSTRSRGSDSPAADVEIEYVTEEPEIYEPNFIFFKRIFEAFKLTDDVKKEKEKEPEKLDKLENSAAPKKKGFEEEHKDSDDDSSDDEQEKKPEAPKLSKKKLRRMNRFTVAELKQLVARPDVVEMHDVTAQDPKLLVHLKATRNSVPVPRHWCFKRKYLQGKRGIEKPPFELPDFIKRTGIQEMREALQEKEEQKTMKSKMREKVRPKMGKIDIDYQKLHDAFFKWQTKPKLTIHGDLYYEGKEFETRLKEKKPGDLSDELRISLGMPVGPNAHKVPPPWLIAMQRYGPPPSYPNLKIPGLNSPIPESCSFGYHAGGWGKPPVDETGKPLYGDVFGTNAAEFQTKTEEEEIDRTPWGELEPSDEESSEEEEEEESDEDKPDETGFITPADSGLITPGGFSSVPAGMETPELIELRKKKIEEAMDGSETPQLFTVLPEKRTATVGGAMMGSTHIYDMSTVMSRKGPAPELQGVEVALAPEELELDPMAMTQKYEEHVREQQAQVEKEDFSDMVAEHAAKQKQKKRKAQPQDSRGGSKKYKEFKF",3.7
